Reference: US20250283886

Assays:
[1] = target: T1, YYMYYM{LYSN3}NH2
T1 chain: YYMYYMX

[2] = target: T2, YYPYYP{LYSN3}NH2
T2 chain: YYPYYPX

[3] = target: T3, AAPAAP{LYSN3}NH2
T3 chain: AAPAAPX

[4] = target: T4, FFPFFP{LYSN3}NH2
T4 chain: FFPFFPX

[5] = target: T5, YPYPYP{LYSN3}NH2
T5 chain: YPYPYPX

[6] = target: T6, EEPFQQ
T6 chain: EEPFQQ

[7] = target: T7, QQPFQQ
T7 chain: QQPFQQ

[8] = target: T8, VVPFQQ
T8 chain: VVPFQQ

[9] = target: T9, YYPFQQ
T9 chain: YYPFQQ

[10] = target: T10, DDMDDM{LYSN3}NH2
T10 chain: DDMDDMX

[11] = target: T11, RRPFQQ
T11 chain: RRPFQQ

[12] = target: T12, KKPFQQ
T12 chain: KKPFQQ

[13] = target: T13, AAPFQQ
T13 chain: AAPFQQ

[14] = target: T14, NNPFQQ
T14 chain: NNPFQQ

[15] = target: T15, LLPFQQ
T15 chain: LLPFQQ

[16] = target: T16, SSPFQQ
T16 chain: SSPFQQ

[17] = target: T17, IIPFQQ
T17 chain: IIPFQQ

[18] = target: T18, TTPFQQ
T18 chain: TTPFQQ

[19] = target: T19, CCPFQQ
T19 chain: CCPFQQ

[20] = target: T20, FFPFQQ
T20 chain: FFPFQQ

[21] = target: T21, DDPFQQ
T21 chain: DDPFQQ

[22] = target: T22, WWPFQQ
T22 chain: WWPFQQ

[23] = target: T23, KKPKKP{LYSN3}NH2
T23 chain: KKPKKPX

[24] = target: T24, RRPRRP{LYSN3}NH2
T24 chain: RRPRRPX

B1: T. aquaticus Aminopeptidase T (protein)
chain: MDAFTENLNKLAELAIRVGLNLEEGQEIVATAPIEAVDFVRLLAEKAYENGASLFTVLYGDNLIARKRLALVPEAHLDRAPAWLYEGMAKAFHEGAARLAVSGNDPKALEGLPPERVGRAQQAQSRAYRPTLSAITEFVTNWTIVPFAHPGWAKAVFPGLPEEEAVQRLWQAIFQATRVDQEDPVAAWEAHNRVLHAKVAFLNEKRFHALHFQGPGTDLTVGLAEGHLWQGGATPTKKGRLCNPNLPTEEVFTAPHRERVEGVVRASRPLALSGQLVEGLWARFEGGVAVEVGAEKGEEVLKKLLDTDEGARRLGEVALVPADNPIAKTGLVFFDTLFDENAASHIAFGQAYAENLEGRPSGEEFRRRGGNESMVHVDWMIGSEEVDVDGLLEDGTRVPLMRRGRWVI
HPLC Assay Conv; 1 mM Peptide, 1 uM Enzyme, 37 C/1 hr [1]: 85% | HPLC Assay Conv; 1 mM Peptide, 1 uM Enzyme, 37 C/1 hr [2]: 30% | HPLC Assay Conv; 1 mM Peptide, 1 uM Enzyme, 37 C/1 hr [3]: >90% | HPLC Assay Conv; 1 mM Peptide, 1 uM Enzyme, 37 C/1 hr [4]: 60%

B2: yPIP-Q24Dark (protein)
chain: MTQQEYQNRRQALLAKMAPGSAAIIFAAPEATRSADSEYPYRQNSDFSYLTGFNEPEAVLILVKSDETHNHSVLFNRIRDLTAEIWFGRRLGQEAAPTKLAVDRALPFDEINEQLYLLLNRLDVIYHAQGQYAYADNIVFAALEKLRHGFRKNLRAPATLTDWRPWLHEMRLFKSAEEIAVLRRAGEISALAHTRAMEKCRPGMFEYQLEGEILHEFTRHGARYPAYNTIVGGGENGCILHYTENECELRDGDLVLIDAGCEYRGYAGDITRTFPVNGKFTPAQRAVYDIVLAAINKSLTLFRPGTSIREVTEEVVRIMVVGLVELGILKGDIEQLIAEQAHRPFFMHGLSHWLGMDVHDVGDYGSSDRGRILEPGMVLTVEPGLYIAPDADVPPQYRGIGIRIEDDIVITATGNENLTASVVKDPDDIEALMALNHAGENLYFQE
HPLC Assay Conv; 1 mM Peptide, ~5 uM Enzyme, 37 C/0.5 hr [5]: <15%

B3: Cy3B-Q24-pAzF-yPIP (protein)
chain: B2 chain
HPLC Assay Conv; 1 mM Peptide, 7 uM Enzyme, 37 C/0.5 hr [5]: 100%

B4: K287pAzF-Cy3 yPIP (protein)
chain: B2 chain
HPLC Assay Conv; 1 mM Peptide, 1 uM Enzyme, 37 C/1 hr [5]: 100%

B5: L. pneumophila M1 aminopeptidase (protein)
chain: MMVKQGVFMKTDQSKVKKLSDYKSLDYFVIHVDLQIDLSKKPVESKARLTVVPNLNVDSHSNDLVLDGENMTLVSLQMNDNLLKENEYELTKDSLIIKNIPQNTPFTIEMTSLLGENTDLFGLYETEGVALVKAESEGLRRVFYLPDRPDNLATYKTTIIANQEDYPVLLSNGVLIEKKELPLGLHSVTWLDDVPKPSYLFALVAGNLQRSVTYYQTKSGRELPIEFYVPPSATSKCDFAKEVLKEAMAWDERTFNLECALRQHMVAGVDKYASGASEPTGLNLFNTENLFASPETKTDLGILRVLEVVAHEFFHYWSGDRVTIRDWFNLPLKEGLTTFRAAMFREELFGTDLIRLLDGKNLDERAPRQSAYTAVRSLYTAAAYEKSADIFRMMMLFIGKEPFIEAVAKFFKDNDGGAVTLEDFIESISNSSGKDLRSFLSWFTESGIPELIVTDELNPDTKQYFLKIKTVNGRNRPIPILMGLLDSSGAEIVADKLLIVDQEEIEFQFENIQTRPIPSLLRSFSAPVHMKYEYSYQDLLLLMQFDTNLYNRCEAAKQLISALINDFCIGKKIELSPQFFAVYKALLSDNSLNEWMLAELITLPSLEELIENQDKPDFEKLNEGRQLIQNALANELKTDFYNLLFRIQISGDDDKQKLKGFDLKQAGLRRLKSVCFSYLLNVDFEKTKEKLILQFEDALGKNMTETALALSMLCEINCEEADVALEDYYHYWKNDPGAVNNWFSIQALAHSPDVIERVKKLMRHGDFDLSNPNKVYALLGSFIKNPFGFHSVTGEGYQLVADAIFDLDKINPTLAANLTEKFTYWDKYDVNRQAMMISTLKIIYSNATSSDVRTMAKKGLDKVKEDLPLPIHLTFHGGSTMQDRTAQLIADGNKENAYQLH
HPLC Assay Conv; 1 mM Peptide, 1.3 uM enzyme, RT/0.5 hr [6]: 31% | HPLC Assay Conv; 1 mM Peptide, 1.3 uM enzyme, RT/0.5 hr [7]: 0% | HPLC Assay Conv; 1 mM Peptide, 1.3 uM enzyme, RT/0.5 hr [8]: 0% | HPLC Assay Conv; 1 mM Peptide, 1.3 uM enzyme, RT/0.5 hr [9]: 0% | HPLC Assay Conv; 1 mM peptide, 1 mM enzyme, 30 C/1 hr [10]: 100% | HPLC Assay Conv; 1 mM Peptide, 1.3 uM enzyme, RT/0.5 hr [11]: 0% | HPLC Assay Conv; 1 mM Peptide, 1.3 uM enzyme, RT/0.5 hr [12]: 0% | HPLC Assay Conv; 1 mM Peptide, 1.3 uM enzyme, RT/0.5 hr [13]: 0% | HPLC Assay Conv; 1 mM Peptide, 1.3 uM enzyme, RT/0.5 hr [14]: 0% | HPLC Assay Conv; 1 mM Peptide, 1.3 uM enzyme, RT/0.5 hr [15]: 0% | HPLC Assay Conv; 1 mM Peptide, 1.3 uM enzyme, RT/0.5 hr [16]: 0% | HPLC Assay Conv; 1 mM Peptide, 1.3 uM enzyme, RT/0.5 hr [17]: 42% | HPLC Assay Conv; 1 mM Peptide, 1.3 uM enzyme, RT/0.5 hr [18]: 0% | HPLC Assay Conv; 1 mM Peptide, 1.3 uM enzyme, RT/0.5 hr [19]: 0% | HPLC Assay Conv; 1 mM Peptide, 1.3 uM enzyme, RT/0.5 hr [20]: 0% | HPLC Assay Conv; 1 mM Peptide, 1.3 uM enzyme, RT/0.5 hr [21]: 21% | HPLC Assay Conv; 1 mM Peptide, 1.3 uM enzyme, RT/0.5 hr [22]: 0%

B6: Vibrio anguillarum Aminopeptidase (protein)
chain: MEEKVWISIGGDATQTALRSGAQSLLPENLINQTSVWVGQVPVSELATLSHEMHENHQRCGGYMVHPSAQSAMSVSAMPLNLNAFSAPEITQQTTVNAWLPSVSAQQITSTITTLTQFKNRFYTTSTGAQASNWIADHWRSLSASLPASKVEQITHSGYNQKSVMLTITGSEKPDEWVVIGGHLDSTLGSRTNESSIAPGADDDASGIAGVTEIIRLLSEQNFRPKRSIAFMAYAAEEVGLRGSQDLANRFKAEGKKVMSVMQLDMTNYQGSREDIVFITDYTDSNFTQYLTQLLDEYLPSLTYGFDTCGYACSDHASWHAVGYPAAMPFESKFNDYNPNIHSPQDTLQNSDPTGFHAVKFTKLGLAYVVEMGNASTPPTPSNQLKNGVPVNGLSASRNSKTWYQFELQEAGNLSIVLSGGSGDADLYVKYQTDADLQQYDCRPYRSGNNETCQFSNAQPGRYSILLHGYNNYSNASLVANAQ
HPLC Assay Conv; 1 mM peptide, 2 uM enzyme, 30 C/1 hr [23]: <5% | HPLC Assay Conv; 1 mM peptide, 2 uM enzyme, 30 C/1 hr [3]: 50% | HPLC Assay Conv; 1 mM peptide, 2 uM enzyme, 30 C/1 hr [24]: >90%

B7: Bacillus stearothermophilus Peptidase M28 (protein)
chain: MAKLDETLTMLKALTDAKGVPGNEREARDVMKTYIAPYADEVTTDGLGSLIAKKEGKSGGPKVMIAGHLDEVGFMVTQIDDKGFIRFQTLGGWWSQVMLAQRVTIVTKKGDITGVIGSKPPHILPSEARKKPVEIKDMFIDIGATSREEAMEWGVRPGDMIVPYFEFTVLNNEKMLLAKAWDNRIGCAVAIDVLKQLKGVDHPNTVYGVGTVQEEVGLRGARTAAQFIQPDIAFAVDVGIAGDTPGVSEKEAMGKLGAGPHIVLYDATMVSHRGLREFVIEVAEELNIPHHFDAMPGVGTDAGAIHLTGIGVPSLTIAIPTRYIHSHAAILHRDDYENTVKLLVEVIKRLDADKVKQLTFDE
HPLC Assay Conv; 1 mM Peptide, 1 uM Enzyme, 37 C/1 hr [1]: >50% | HPLC Assay Conv; 1 mM Peptide, 1 uM Enzyme, 37 C/1 hr [2]: 10% | HPLC Assay Conv; 1 mM Peptide, 1 uM Enzyme, 37 C/1 hr [3]: 100% | HPLC Assay Conv; 1 mM Peptide, 1 uM Enzyme, 37 C/1 hr [4]: 30%
